A mixed list of measured activities; the numbers were collected in NIAID ChemDB.

Shared fields: cytotoxicity tests; cell line: MT-4; endpoint: CC50

An empty or dashed field is not shown.

C=C1CN(S(=O)(=O)c2ccc(C)cc2)CCCN(CCC(C)C)CCCN(S(=O)(=O)c2ccc(C)cc2)C1 ; method: trypan blue / propidium iodide ; value: 32.5 µM
O=C(Nc1ccc(S(=O)(=O)Nc2cccc(Cl)c2F)cc1)c1cc(O)c(O)c(O)c1 ; value: >25 µM
CCOC(=O)c1cnn2c1n[n+]([O-])c1cc(Cl)ccc12 ; value: >200 µM
C=CCCc1cccc(Cc2[nH]c(=O)[nH]c(=O)c2CC)c1 ; method: MTT ; value: 66 µM
Cc1cccc(N2C(=O)CSC2c2c(F)cccc2F)c1 ; value: 207.8 µM
CC(C)COC(=O)N(Cc1ccccc1)CC(O)C(Sc1ccccc1)N(Cc1ccccc1)C(=O)OCC(C)C ; value: 50 µM
O=[N+]([O-])c1ccc2c(c1)[n+]([O-])nc1c([N+](=O)[O-])cnn12 ; value: 1.4 µM
C=C1CN(S(=O)(=O)c2ccc(C)cc2)CCCN(CC2CC=CCC2)CCCN(S(=O)(=O)c2ccc(C)cc2)C1 ; method: trypan blue / propidium iodide ; value: 32.7 µM
CC(C)CN(C[C@@H](O)[C@H](Cc1ccccc1)NC(=O)O[C@H]1CO[C@H]2OCC[C@H]21)S(=O)(=O)c1ccc(-c2coc(-c3ccco3)n2)cc1 ; method: MTT ; value: >32.4 µM
Cc1ncn(Nc2ccc(F)cc2)c1-c1ccccc1 ; value: 30.82 µM
Clc1cccc(-c2nc(-c3nnc(C45CCC6CC(CC4C6)C5)o3)cs2)c1 ; method: MTT ; value: >125 µM
C=CCOc1cccc(Cc2nc(SCC(C)C)nc(OCC(C)C)c2CC)c1 ; method: MTT ; value: >100 µM
O=[N+]([O-])c1ccc2c(c1)nnc1c(Br)cnn12 ; value: >200 µM
Cc1nnc(C(=O)N(C)C2COCCn3c2nc(C(=O)NCc2ccc(F)cc2)c(O)c3=O)o1 ; method: microscopy ; value: >1 µM
C=C1CN(S(=O)(=O)c2ccc(C)cc2)CCCN(Cc2cccnc2)CCCN(S(=O)(=O)c2ccc(C)cc2)C1 ; method: trypan blue / propidium iodide ; value: 32.6 µM
CCOC(=O)c1cnn2c1nnc1cc(Cl)ccc12 ; value: 192 µM
COc1cccc(F)c1C1SCC(=O)N1c1nccc(C)n1 ; value: 317.4 µM
[O-][n+]1nc2c(Br)cnn2c2ccccc21 ; value: >200 µM
Cc1ncn(Nc2cccc(Cl)c2)c1-c1ccccc1 ; value: 17.48 µM
C=C1CN(S(=O)(=O)c2ccc(C)cc2)CCCN(C(=O)OCC)CCCN(S(=O)(=O)c2ccc(C)cc2)C1 ; method: trypan blue / propidium iodide ; value: >75 µM
Cn1cnc(CN2CCn3c(nc(C(=O)NCc4ccc(F)cc4)c(O)c3=O)C2(C)C)n1 ; method: microscopy ; value: >1 µM
CCOC(=O)N(Cc1ccccc1)CC(O)C(Sc1ccccc1)N(Cc1ccccc1)C(=O)OCC ; value: 50 µM
Cc1cccc(C)c1OCC(=O)N[C@@H](Cc1ccccc1)[C@H](O)CN(CC(C)C)S(=O)(=O)c1ccc(-c2ccn[nH]2)cc1 ; method: MTT ; value: 63.1 µM
O=C(Nc1ccc(S(=O)(=O)Nc2ccccc2Br)cc1)c1cc(O)c(O)c(O)c1 ; value: >25 µM
CCOC(=O)c1cccn1S(=O)(=O)c1cc(Cl)ccc1NS(=O)(=O)c1ccc(Cl)cc1 ; value: 17 µM
C=CCOc1cccc(Cc2[nH]c(=O)[nH]c(=O)c2CC)c1 ; method: MTT ; value: 74 µM
Cc1ccnc(N2C(=O)CSC2c2c(F)ccc(C)c2Cl)c1 ; value: 295.3 µM
Cc1ccc(Oc2nc(Nc3ccc(C#N)cc3F)nc(NC(C)C)n2)cc1 ; value: 278 µM
Cc1[nH]c(=S)n(Nc2ccccc2)c1C ; value: 181 µM
[O-][n+]1nc2ccnn2c2ccccc21 ; value: >200 µM
C=C1CN(S(=O)(=O)c2ccc(C)cc2)CCCN(CC(C)C)CCCN(S(=O)(=O)c2ccc(C)cc2)C1 ; method: trypan blue / propidium iodide ; value: >75 µM
Cc1ccc(CNC(=O)c2nc3n(c(=O)c2O)CCN(C)CC3N(C)C(=O)C(=O)N(C)C)cc1Cl ; method: microscopy ; value: >1 µM
Cc1cccc(Nn2cnc(C)c2-c2ccccc2)c1 ; value: 27.04 µM
CC(C)[C@H](NC(=O)c1ccc2ccccc2n1)C(=O)N(Cc1ccccc1)CC(O)C(Sc1ccccc1)N(Cc1ccccc1)C(=O)[C@@H](NC(=O)c1ccc2ccccc2n1)C(C)C ; value: 50 µM
CCOC(=O)c1ccc2n1S(=O)(=O)c1cc(Cl)ccc1N2C(N)=O ; value: 70 µM
Cc1cc(C)cc(NS(=O)(=O)c2ccc(NC(=O)/C=C/c3ccc(O)c(O)c3)cc2)c1 ; value: 12 µM
CCOCn1c(Cc2cccc(CCC=O)c2)c(CC)c(=O)[nH]c1=O ; method: MTT ; value: >100 µM
Cc1ccccc1-c1nc(-c2nnc(C34CCC5CC(CC3C5)C4)o2)cs1 ; method: MTT ; value: ≥10.5 µM
CC(C)CN(C[C@@H](O)[C@H](Cc1ccccc1)NC(=O)O[C@H]1CO[C@H]2OCC[C@H]21)S(=O)(=O)c1ccc(-c2ccncc2)cc1 ; method: MTT ; value: 14.8 µM
C=CCOc1cccc(Cc2nc(N(C)C)[nH]c(=O)c2CC)c1 ; method: MTT ; value: >100 µM
CC1c2nc(C(=O)NCc3ccc(F)cc3)c(O)c(=O)n2CCN1Cc1ccnn1C ; method: microscopy ; value: >1 µM
Cc1cccc(Nn2c(C)c(C)[nH]c2=S)c1 ; value: 360 µM
N#Cc1cnn2c1n[n+]([O-])c1ccccc12 ; value: 54 µM
O=C(NC(=S)NCCc1ccccc1Cl)c1csc(-c2ccccc2)n1 ; method: MTT ; value: 32.22 µM
O=C(/C=C/c1ccc(O)c(O)c1)Nc1ccc(S(=O)(=O)Nc2ccc(F)c(Cl)c2)cc1 ; value: 14 µM
O=C(NCc1ccc(F)cc1)c1nc2n(c(=O)c1O)CCN(Cc1cn[nH]n1)C2 ; method: microscopy ; value: >1 µM
COc1cccc(F)c1C1SCC(=O)N1c1cc(C)cc(C)n1 ; value: ≥209.4 µM
C=CCOc1cccc(Cc2nc(SC)[nH]c(=O)c2CC)c1 ; method: MTT ; value: 80 µM
CNc1nc(Nc2ccc(C#N)cc2F)nc(Oc2ccc3ccccc3c2Cl)n1 ; value: 149 µM
[O-][n+]1nc2ccnn2c2ccc(Cl)cc21 ; value: >200 µM
Cc1cccc(-c2nc(-c3nnc(C45CCC6CC(CC4C6)C5)o3)cs2)c1 ; method: MTT ; value: >125 µM
C=CCOc1cccc(Cc2[nH]c(=S)[nH]c(=O)c2CC)c1 ; method: MTT ; value: 86 µM
CCc1ncn(Nc2cccc(C)c2)c1-c1ccccc1 ; value: 27.87 µM
CCNc1nc(Nc2ccc(C#N)cc2F)nc(Oc2ccc3ccccc3c2Br)n1 ; value: >262 µM
CCOC(=O)c1cccn1S(=O)(=O)c1cc(Cl)ccc1NC(=O)CN1CCN(C(C)=O)CC1 ; value: 135 µM
Cc1nc(-c2ccc(S(=O)(=O)N(CC(C)C)C[C@@H](O)[C@H](Cc3ccccc3)NC(=O)O[C@H]3CO[C@H]4OCC[C@H]43)cc2)co1 ; method: MTT ; value: >100 µM
Cc1ccc(Oc2nc(N)nc(Nc3ccc(C#N)cc3F)n2)cc1 ; value: 163 µM
CC(C)[C@H](NC(=O)OC(C)(C)C)C(=O)NCC(O)C(NC(=O)[C@@H](NC(=O)OC(C)(C)C)C(C)C)Sc1ccccc1 ; value: 50 µM
C=C1CN(S(=O)(=O)c2ccc(C)cc2)CCCN(CC2CCCCC2)CCCN(S(=O)(=O)c2ccc(C)cc2)C1 ; method: trypan blue / propidium iodide ; value: 29.3 µM
CCOC(=O)c1cccn1S(=O)(=O)c1cc(Cl)ccc1NC(=O)C(C)(C)C ; value: 42 µM
O=C(/C=C/c1ccc(O)c(O)c1)Nc1ccc(S(=O)(=O)Nc2ccc(Br)cc2)cc1 ; value: 15 µM

Again, the opening 7 rows:

structure,method,value
C=C1CN(S(=O)(=O)c2ccc(C)cc2)CCCN(CCC(C)C)CCCN(S(=O)(=O)c2ccc(C)cc2)C1,trypan blue / propidium iodide,32.5 µM
O=C(Nc1ccc(S(=O)(=O)Nc2cccc(Cl)c2F)cc1)c1cc(O)c(O)c(O)c1,,>25 µM
CCOC(=O)c1cnn2c1n[n+]([O-])c1cc(Cl)ccc12,,>200 µM
C=CCCc1cccc(Cc2[nH]c(=O)[nH]c(=O)c2CC)c1,MTT,66 µM
Cc1cccc(N2C(=O)CSC2c2c(F)cccc2F)c1,,207.8 µM
CC(C)COC(=O)N(Cc1ccccc1)CC(O)C(Sc1ccccc1)N(Cc1ccccc1)C(=O)OCC(C)C,,50 µM
O=[N+]([O-])c1ccc2c(c1)[n+]([O-])nc1c([N+](=O)[O-])cnn12,,1.4 µM

Neighbouring rows are from separate reports. CCn is the concentration with n% toxicity to the cells.